Record: PubChem BioAssay AID1259414 (Drosophila RNAi Screening Center, 2018)
Purpose: 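Host factors increasing or decreasing Wolbachia levels in cultured fly cells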 (primary screen). System: Drosophila JW18 cells infected with Wolbachia. Reagent: long dsRNA against Drosophila genes, 0.25 µg dsRNA per well of a 384-well plate. Timing: 5 days. Conditions: cells persistently infected with Wolbachia before knock-down; no added drug. Detection: 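Imaged fluorescence in situ signal for Wolbachia 23S rRNA per DAPI-counted host cell, given as a robust z-score within each plate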. Direction: Wolbachia per cell robust z: higher = more Wolbachia per host cell than the plate typical. Rule for the call: 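Active if absolute robust z reaches 1.5 in two or more of three replicates, leaving out multi- or no-target dsRNAs, genes unexpressed in JW18 and A1 wells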.
The screen tested about 24,000 reagents; shown is a random part of those with a known target gene and a result. Of all reagents, about 1,210 (5%) were called active. 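Inactive calls also include excluded dsRNAs with several or no targets, genes unexpressed in JW18, and well A1, regardless of score.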 A plus sign joins genes that one reagent is predicted to hit.

Target gene | DRSC id | Wolbachia per cell robust z, rep 1 | Wolbachia per cell robust z, rep 2 | Wolbachia per cell robust z, rep 3 | call
CG32461 | DRSC11594 | 0.197 | -1.37 | -0.321 | inactive
CG11106 | DRSC19381 | 0.56 | 0.515 | 0.033 | inactive
CG16775 | DRSC10225 | 0.662 | 0.779 | -0.613 | inactive
GILT3 (Gamma-interferon-inducible lysosomal thiol reductase 3) | DRSC14672 | -2.66 | -2.29 | 0.248 | inactive
Tgs1 + moi | DRSC16371 | 0.171 | 0.635 | -4.69 | inactive
Tgs1 + moi | DRSC39087 | -4.13 | 0.271 | -0.744 | inactive
CG12877 | DRSC14565 | -0.386 | 0.258 | 0.295 | inactive
CG10793 | DRSC17760 | 0.328 | -1.16 | 0.176 | inactive
CG10324 | DRSC14230 | 0.0448 | 1.81 | 0.724 | inactive
inaE (inactivation no afterpotential E) | DRSC19376 | -2.24 | -0.453 | -0.143 | inactive
inaE (inactivation no afterpotential E) | DRSC19377 | -0.258 | -6.7 | -1.46 | inactive
inaE (inactivation no afterpotential E) | DRSC19379 | 0.218 | 0.0509 | 0.759 | inactive
inaE (inactivation no afterpotential E) | DRSC26883 | -1.27 | -1.22 | -3.21 | inactive
CG33308 | DRSC01419 | -1.02 | -1.34 | -3.25 | inactive
CG17855 | DRSC02638 | -0.695 | -1.25 | -0.895 | inactive
CG7420 | DRSC00704 | -1.02 | 0.0261 | -0.84 | inactive
CG7420 | DRSC41528 | -0.923 | 0.113 | 1.02 | inactive
CG31710 | DRSC01089 | 0.61 | 0.229 | -0.0753 | inactive
CG31710 | DRSC22863 | 0.292 | 0.69 | -0.669 | inactive
CG31710 | DRSC25873 | -1.33 | 0.484 | 1.21 | inactive

Next part; the last 2 above are carried over.
Target gene | DRSC id | Wolbachia per cell robust z, rep 1 | Wolbachia per cell robust z, rep 2 | Wolbachia per cell robust z, rep 3 | call
CG31710 | DRSC22863 | 0.292 | 0.69 | -0.669 | inactive
CG31710 | DRSC25873 | -1.33 | 0.484 | 1.21 | inactive
Lamtor3 (Late endosomal/lysosomal adaptor, MAPK and MTOR activator 3) | DRSC02815 | -0.3 | -0.12 | -0.554 | inactive
CG3281 | DRSC15470 | 0.621 | -0.577 | 1.03 | inactive
CG3281 | DRSC28414 | 0.81 | 1.23 | 0.923 | inactive
lncRNA:CR34006 (long non-coding RNA:CR34006) | DRSC37920 | 0.458 | 1.73 | 0.899 | inactive
CG7857 | DRSC10925 | -0.0675 | 0.521 | 1.03 | inactive
CG7857 | DRSC29862 | -0.147 | 0.102 | -1.09 | inactive
CG11674 | DRSC19414 | -0.188 | 0.0689 | -0.441 | inactive
lncRNA:roX1 (long non-coding RNA on the X 1) | DRSC21884 | -1.83 | -2.12 | -1.57 | active
Usp30 (Ubiquitin specific protease 30) | DRSC18265 | -0.0578 | -6.1 | -0.14 | inactive
Usp30 (Ubiquitin specific protease 30) | DRSC29538 | -0.793 | -1.7 | -1.73 | active
CG1344 | DRSC04837 | 0.419 | -0.367 | 0.72 | inactive
nonA (no on or off transient A) | DRSC20357 | -3.54 | 0.629 | 0.787 | inactive
nonA (no on or off transient A) | DRSC27455 | 1.27 | 0.456 | -0.0721 | inactive
nonA (no on or off transient A) | DRSC41353 | -1.13 | -2.3 | 0.418 | inactive
RpL11 (Ribosomal protein L11) | DRSC07537 | 4.53 | 1.54 | 5.73 | active
RpL11 (Ribosomal protein L11) | DRSC26217 | 2.1 | 1.63 | 1.34 | active
fru (fruitless) | DRSC16953 | 0.344 | 0.623 | -2.84 | inactive
fru (fruitless) | DRSC24960 | 0.366 | -1.23 | -0.0968 | inactive
CG7550 | DRSC10875 | 1.23 | -4.61 | 0.457 | inactive
Gs1 (Glutamine synthetase 1) | DRSC00753 | 0.944 | 0.644 | 0.924 | inactive
Gs1 (Glutamine synthetase 1) | DRSC28916 | 0.88 | -0.262 | 0.703 | inactive
CG3552 | DRSC10370 | -0.937 | -5.42 | -1.97 | active
CG43386 + CG1889 | DRSC17979 | 0.766 | 0.852 | 1.09 | inactive
qvr (quiver) | DRSC05280 | -0.164 | -0.229 | 0.728 | inactive
CG33947 | DRSC37775 | 0.413 | -0.588 | 0.192 | inactive
CG33947 | DRSC39123 | -0.32 | -3.37 | -1.05 | inactive
